Library screen at single concentrations

Values are the deposited “Percent Effect”, in %.
The record does not define 0% and 100%; most values in the screen are far below 50% and negative numbers occur (in some assays of this library far below -100).
Many other results are left out here, so strong results are more common than in the screen.

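Whole-cell growth test on Mycobacterium tuberculosis, read after 3 days in glucose-containing 7H9 medium; the read-out is not stated. Concentration: 500 µM. Direction is inferred from retests: higher values go with more growth inhibition. About 18,000 compounds were tested under these conditions; 7.9% (about 1,400) showed 50% or more at least once.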

Result for Cn1ccnc1-c1noc(NC(=O)c2ccccn2)n1 was 10.05%. With NC(=O)NCC(=O)Nc1cccc(Cl)c1 the screen gave -11.91%. For CC(=O)Nc1ccc(N2CCN(S(C)(=O)=O)CC2)cc1 the result was 1.583%. Result for CNC(=O)CCCNC(=O)Nc1nc2ccccc2s1 was 6.926%. Result for CC(C)Cc1cc(CN)on1 was 5.324%. Result for CCN1CCN(CC(=O)Nc2c(C)cccc2C)CC1 was 6.605%.

Result for CN(CCNc1ncccc1C#N)C(=O)OC(C)(C)C was 43.26%. NC(=O)c1cccc(NC(=O)Cc2ccc(F)cc2)c1 gave 39.36%. With Cc1cc(C(=O)NCCNc2ncccn2)on1 the screen gave 8.583%. With Nc1cnccc1CO the screen gave -2.429%. Cc1cc(C(=O)N2CCC(O)(CN(C)C)C2)cc(C)n1 (centres undefined) read 8.62%. With Cc1cc(=O)[nH]c(C2(N)CCCCC2)n1 the screen gave -6.904%.

Cc1csc(CCNC(=O)CNC(=O)C(C)(C)C)n1 read -3.158%. CC(NS(=O)(=O)c1cnn(C)c1)c1ccncc1 (centres undefined) gave -29.19%. Result for O=C(c1ccc(F)cc1)c1ncc[nH]1 was 25.59%. With O=C(c1c[nH]nc1-c1ccccc1)N1CCOCC1 the screen gave 5.773%. NCCc1ccc2cc[nH]c2c1 read 55.81%. Result for CN1CCCCC1CN1CCc2c(c(CO)nn2C)C1 (centres undefined) was -34.3%.

For Cn1cnnc1CN1CCC(C2CCOCC2)CC1 the result was 0.92%. O=C(CCc1ccccc1)NC1CCCCNC1=O (centres undefined) read -1.723%. With O=C(Nc1cc(F)cc(F)c1)c1ccncc1 the screen gave 53.47%. For CC(=O)c1c[nH]c(C(=O)Nc2nnc(C)s2)c1 the result was -10.14%. COc1nccnc1CN1CCN(C)CC1C(C)C (centres undefined) gave 3.989%. With CSCCC(=O)NC(C)c1ccc2c(c1)OCCCO2 (centres undefined) the screen gave 55.61%.

Cc1cccc(C(=O)NCc2cccc(O)c2)n1 read 63.22%. Result for COc1ncccc1C(=O)NCCN1CCCC(C)C1 (centres undefined) was 12.43%. O=C1OCCN1CCn1nnc(-c2ccc(F)cc2)n1 read 39.9%. Result for CCN1CCN(CCCNC(=O)c2cnccn2)CC1 was -9.86%. For CN(C)c1ccc(-c2[nH][nH]c(=O)c2CCN)cc1 the result was 31.04%. For Cc1nc(N)sc1C(=O)NC(c1cccnc1)C(C)C (centres undefined) the result was 14.18%.

Result for CN(CCSc1nnc[nH]1)c1ccccc1 was 32.92%. With O=C(c1cccc2cc[nH]c12)N1CCSCC1 the screen gave 53.06%. Result for Cn1cc(C(=O)NCCCN2CCOCC2)ccc1=O was 0.8018%. For Cn1ccnc1CNC1CC1 the result was 3.794%. With O=C(c1ccc(CN2CCOCC2)cc1)N1CCCC1 the screen gave 16.05%. COCCc1noc(-c2cnsn2)n1 gave -7.139%.

For COc1cc(F)cc(CN)c1 the result was 6.412%. Cc1cnc(N2CCC(O)CC2)c(Br)c1 read 63.61%. Cn1cc(C(=O)NC2CCCOc3ccccc32)nn1 (centres undefined) read 9.146%. CC(C)Nc1cc(Cl)ccc1OCCS(C)(=O)=O gave 52.48%. CCCn1nnnc1NCc1ccc(C)s1 gave 71.74%. Result for CC(O)c1ccc2c(c1)CC(=O)N2 (centres undefined) was 5.947%.

5 of the entries, repeated:

| SMILES | effect |
|---|---|
| `COc1cc(F)cc(CN)c1` | 6.412% |
| `Cc1cccc(C(=O)NCc2cccc(O)c2)n1` | 63.22% |
| `O=C(CCc1ccccc1)NC1CCCCNC1=O` (centres undefined) | -1.723% |
| `Cc1cc(C(=O)N2CCC(O)(CN(C)C)C2)cc(C)n1` (centres undefined) | 8.62% |
| `CN(CCSc1nnc[nH]1)c1ccccc1` | 32.92% |

From ChEMBL document CHEMBL3988442, “University of Dundee, Small-Polar-MMV Screening Library” (2021).